Test system: A. viscosus biofilm
Experiment: Penetration of methylene blue into A. viscosus biofilms on enamel, with or without a laser stress wave (fluorescence confocal microscopy)

Question: Which results are given for `CN(C)c1ccc2nc3ccc(=[N+](C)C)cc-3sc2c1` [methylene blue]?
Answer: depth to which fluorescence was observed in the biofilm (50 μg/ml methylene blue 5 minutes, single laser-generated stress wave (600 bar peak pressure)): 600-700 μm; depth to which fluorescent intensity was increased in the biofilm (control: 50 μg/ml methylene blue 5 minutes, no stress wave): no more than 400 μm

Reference: patent US7332200B1, “Permeabilizing biofilms” (The General Hospital Corporation, priority 1999, dated 2008)
